According to patent US20220053773A1 (priority 2018, published 2022):

What was measured:
[1] = test system: Pseudomonas Resistant BAA-2114; assay: MIC against resistant Pseudomonas; conditions: Table 9 lower part, c6
[2] = test system: Xanthomonas Perforans BAA983; assay: MIC against Xanthomonas perforans; conditions: Table 9 lower part, c9
[3] = test system: Xanthomonas Euvesicatoria 11633; assay: MIC against Xanthomonas euvesicatoria; conditions: Table 9 lower part, c10
[4] = test system: E. coli strains resistant to 11P; assay: Activity on E. coli strains evolved in vitro to resist 11P; assay type: cell-based; conditions: BL21 and ATCC 25922 resistant to 11P

Row | SMILES | MIC-human (μm) Pseudomonas Resistant BAA-2114 [1] [µM] | MIC-plant (μm) Xanthomonas Perforans BAA983 [2] [µM] | MIC-plant (μm) Xanthomonas Euvesicatoria 11633 [3] [µM] | rise of MIC in resistant E. coli strains [4]
1 | CC[C@H](C)[C@@H]1NC(=O)[C@H](CCCCN)NC(=O)[C@H](CC(C)C)NC(=O)[C@H]([C@@H](C)CC)NC(=O)[C@H](CCCCN)NC(=O)[C@H](CCCCN)NC(=O)[C@H]([C@@H](C)CC)NC(=O)[C@H](CC(C)C)NC(=O)[C@H](CCCCN)NC(=O)[C@H](CCCCN)NC(=O)[C@H](CCCNC(=N)N)NC(=O)CNC(=O)[C@@H]2CCCN2C(=O)CNC(=O)[C@H](CCCCN)NC(=O)[C@H](CCCCN)NC(=O)[C@H](CC(C)C)NC(=O)[C@H]([C@@H](C)CC)NC(=O)[C@H](CCCCN)NC(=O)[C@H](CCCCN)NC(=O)[C@H]([C@@H](C)CC)NC(=O)[C@H](CC(C)C)NC(=O)[C@H](CCCCN)NC(=O)[C@H]([C@@H](C)CC)NC(=O)[C@H](CC(C)C)NC(=O)[C@H](CCCNC(=N)N)NC(=O)CNC(=O)[C@@H]2CCCN2C(=O)CNC(=O)[C@H](CC(C)C)NC1=O [CYCLIC30P] | 10 (≈ 33.7 µg/mL) | 5.0 (≈ 16.9 µg/mL) | 5.0 (≈ 16.9 µg/mL) | 
2 | CC[C@H](C)[C@H](NC(=O)[C@H](CCCCN)NC(=O)[C@H](CC(C)C)NC(=O)[C@@H](NC(=O)[C@H](CCCCN)NC(=O)[C@H](CCCCN)NC(=O)[C@@H](NC(=O)[C@H](CC(C)C)NC(=O)[C@H](CCCCN)NC(=O)[C@@H](N)CCCCN)[C@@H](C)CC)[C@@H](C)CC)C(=O)N[C@@H](CC(C)C)C(=O)O [Peptide P11, KKLIKKILKIL] |  |  |  | 10-20 fold

In brackets after ≈: the same amount, converted by molar mass.
